Values of other authors, collected in patent US8022090B2, “Vitamin C composition stabilized with cationic material, anionic material and caffeic acid derivative” (The Faceshop Korea Co., Ltd, priority 2007, dated 2011).

Test system: production of aflatoxin
Details: background statement; cited from earlier work

**Q.** For `O=C(O)/C=C/c1ccc(O)c(O)c1` [caffeic acid], which “decrease of the production of aflatoxin” value is on record?
**A.** more than 95%
